A mixed list of measured activities; the numbers were collected in NIAID ChemDB.

All rows: growth or infection tests; agent: Rhinovirus; read by: plaque count; measure: EC50

Rows are shuffled and stem from different studies. ECn: concentration that inhibits the pathogen or its effect by n%. An empty or dashed field is not shown.

SMILES | strain | cell line | result
CC(=O)NCCCNc1nnc2c3ccccc3n(C)c2n1 | HGP | WI-38 | 100 µg/mL
CN(C)c1ncnc2c1ncn2Cc1ccc(C#N)cc1 | Serotype 1B | M-HELA | >50 µM
COc1ccc(OCCCCCCn2ccnc2)c(Cl)c1 | TYPE 45 | HeLa | 29.1 µM
CC(=O)OCCCNc1nnc2c3ccccc3n(C)c2n1 | HGP | WI-38 | 220 µg/mL
Cc1ccc(Cn2cnc3c(N(C)C)nc(C(F)(F)F)nc32)c(C)c1 | Serotype 8 | M-HELA | >8 µM
Cc1cc(CCCOc2c(C)cc(-n3nnc(C)n3)cc2C)on1 | Serotype 16 |  | 0.075 µg/mL
CN(C)c1nc(C(F)(F)F)nc2c1ncn2Cc1cccc(F)c1 | Serotype 30 | M-HELA | >8 µM
Cc1ccc(Cn2cnc3c(N(C)C)nc(C(F)(F)F)nc32)cc1 | TYPE 16 | M-HELA | >5 µM
CNC(=O)C(c1cccc(F)c1)c1ccc2nc(N)n(S(=O)(=O)N3CCCC3)c2c1 | 1059 (serotype 14) | HeLa | 0.02 µg/mL
Cc1cc(CCCCCOc2c(Cl)cc(C3=NCCO3)cc2Cl)on1 | TYPE 49 | HeLa | 0.048 µg/mL
Cc1cc(Cl)ccc1Cn1cnc2c(N(C)C)nc(C(F)(F)F)nc21 | Serotype 3 | M-HELA | >8 µM
CC(C)S(=O)(=O)n1c(N)nc2ccc(/C(=N/O)c3ccccc3)cc21 | 1059 (serotype 14) | HeLa | 0.05 µg/mL
CN(C)c1nc(C(F)(F)F)nc2c1ncn2Cc1ccc(Cl)c(NC=O)c1 | Serotype 3 | M-HELA | >8 µM
Cn1c2ccc(Cl)cc2c2nnc(NCCCO)nc21 | HGP | WI-38 | 100 µg/mL
Cc1cc(CCCOc2c(C)cc(-c3coc(C)n3)cc2C)on1 | Serotype 16 |  | 0.954 µg/mL
Cn1c2ccccc2c2nnc(NCCc3ccccn3)nc21 | 1059 | WI-38 | 220 µg/mL
Fc1cccc(Cn2cnc3c(Nc4cccc(F)c4)nc(C(F)(F)F)nc32)c1 | Serotype 25 | M-HELA | 1.2 µM
S=c1nc2c(n[nH]1)c1ccccc1n2CCc1ccccc1 | 1059 | WI-38 | 10 µg/mL
CN(C)c1nc(C(F)(F)F)nc2c1ncn2Cc1ccc(C(F)(F)F)cc1 | TYPE 1B | M-HELA | 0.11 µM
CC(C)S(=O)(=O)n1c(N)nc2ccc(C(C(N)=O)c3ccc(F)c(F)c3F)cc21 | 1059 (serotype 14) | HeLa | 0.02 µg/mL
CN(C)c1nc(C(F)(F)F)nc2c1ncn2Cc1ccc(Cl)c(N)c1 | Serotype 5 | M-HELA | >8 µM
CN(C)c1nc(Cl)nc2c1ncn2Cc1ccc(Cl)cc1 | Serotype 15 | M-HELA | >5 µM
Fc1cccc(Nc2nc(C(F)(F)F)nc3c2ncn3Cc2ccc(C(F)(F)F)cc2)c1 | Serotype 2 | M-HELA | 43 µM
CCCn1c2ccccc2c2n[nH]c(=S)nc21 | 1059 | WI-38 | 20 µg/mL
CN(C)c1nc(C(F)(F)F)nc2c1ncn2Cc1ccc([N+](=O)[O-])cc1 | Serotype 3 | M-HELA | >8 µM
CCCS(=O)(=O)n1c(N)nc2ccc(C(C(=O)NC)c3cccc(F)c3)cc21 | 1059 (serotype 14) | HeLa | 0.04 µg/mL
CN(C)c1ncnc2c1ncn2Cc1cccc([N+](=O)[O-])c1 | Serotype 1B | M-HELA | >50 µM
CN(C)c1nc(C(F)(F)F)nc2c1ncn2Cc1ccc(Cl)cc1Cl | Serotype 15 | M-HELA | >8 µM

A second listing of 4 rows from above:

CN(C)c1nc(C(F)(F)F)nc2c1ncn2Cc1cccc(F)c1 ; strain: Serotype 30 ; cell line: M-HELA ; result: >8 µM
CN(C)c1nc(Cl)nc2c1ncn2Cc1ccc(Cl)cc1 ; strain: Serotype 15 ; cell line: M-HELA ; result: >5 µM
CC(C)S(=O)(=O)n1c(N)nc2ccc(C(C(N)=O)c3ccc(F)c(F)c3F)cc21 ; strain: 1059 (serotype 14) ; cell line: HeLa ; result: 0.02 µg/mL
CC(C)S(=O)(=O)n1c(N)nc2ccc(/C(=N/O)c3ccccc3)cc21 ; strain: 1059 (serotype 14) ; cell line: HeLa ; result: 0.05 µg/mL